Results: patent US20230108186A1, “NITRIC OXIDE-RELEASING ANTIBACTERIAL COMPOUNDS, FORMULATIONS, AND METHODS PERTAINING THERETO” (published 2023)

Tests used:
[1] = test system: P. aeruginosa; test: MIC/MBC against P. aeruginosa, Tables 5 and 6; settings: MTDD (NCT-19-096) mixed with β-cyclodextrin
[2] = test system: PAK; test: pH vs efficacy against PAK / pH dependence of NO release; settings: data not shown
[3] = test system: P. aeruginosa (PAK), strain N0049; test: MIC/MBC of samples of varying purity (MD3 relative to MD2)

β-cyclodextrin
MIC against P. aeruginosa [1]: >6250 mg/L

[O-]/[N+](=N\O)C(/[N+]([O-])=N/O)/[N+]([O-])=N/O
rate of NO release, pH comparison ([2]; pH of around 6.5 vs around 7.5): higher rates of NO-release at a pH of around 6.5 than around 7.5 | NO release ([2]; pH of around 8.4): relatively little NO release | MBC [3]: 125 mg/L | MIC [3]: 62.5 mg/L
